We go through one sequence from PMC3694859.

This series deals with MBP-KguR-His6 (MBP-C5040-His6) (Escherichia coli CFT073 (UPEC)) (UniProt A0A0H2VD08). Briefly: EMSA. Conditions: recombinant protein; residues 1-452; protein details: N-terminal MBP (pMAL-c2x), C-terminal His6; probe letters rebuilt from the primers and the genome.

As to “TTAATCAGCGCGGCATGTTCAGTTATACCGGTTTAAGAACCGCTCAGGTTGACCGACTACGTGAAGAATTTGGTGTCTATCTCATCGCCAGCGGTCGCATGTGTGTCGCCGGGCTTAACGCGCAAAATGTGCATCGCGTGGCAAAGGCGTTTGCTGCGGTGATGTGATTTTAATCAACAGGCGGATCTCTCCGCCTGTTCCTGACTCCAGCCATCCCCTACTATTCTGTCCCTTTTTTCGCCCACTTTTACATCATCTCTTTTCTATAAGTTTTTGAAAATTAGTGTTTTTAACTGTTGGTACGG (double strand) [c5032 promoter]”, the binding result is recorded as “binds”.
